Test [1] deals with T1, mouse α1β1δε nAChR (Mus musculus, UniProt P02716+P04756+P20782).
In test [2] the target is T2, rat α3β2 nAChR (Rattus norvegicus, UniProt P04757+P12390).
For test [3], the target named is T3, rat α3β4 nAChR (Rattus norvegicus, UniProt P04757+P12392).
Test [4] concerns the target T2, rat α3β2 nAChR. The test can be described thus: TEVC recording of ACh-evoked currents, rat α3β2 nAChR expressed in Xenopus laevis oocytes. Particulars: for activity at α3β2 nAChR: concentrations up to 10 μM.
The target in test [5] is T3, rat α3β4 nAChR. The test can be described thus: TEVC recording of ACh-evoked currents, rat α3β4 nAChR expressed in Xenopus laevis oocytes. Conditions: for activity at α3β4 nAChR: concentrations up to 10 μM.
Test [6] has as its target T1, mouse α1β1δε nAChR. The test can be described thus: TEVC recording of ACh-evoked currents, mouse α1β1δε nAChR expressed in Xenopus laevis oocytes. Particulars: for effect on α1β1δε nAChR: 1 μM peptide.

The chains behind the UniProt entries cited, without tags or fusion partners. Residues count along the entry.
UniProt P04757, 26-499 limits assumed: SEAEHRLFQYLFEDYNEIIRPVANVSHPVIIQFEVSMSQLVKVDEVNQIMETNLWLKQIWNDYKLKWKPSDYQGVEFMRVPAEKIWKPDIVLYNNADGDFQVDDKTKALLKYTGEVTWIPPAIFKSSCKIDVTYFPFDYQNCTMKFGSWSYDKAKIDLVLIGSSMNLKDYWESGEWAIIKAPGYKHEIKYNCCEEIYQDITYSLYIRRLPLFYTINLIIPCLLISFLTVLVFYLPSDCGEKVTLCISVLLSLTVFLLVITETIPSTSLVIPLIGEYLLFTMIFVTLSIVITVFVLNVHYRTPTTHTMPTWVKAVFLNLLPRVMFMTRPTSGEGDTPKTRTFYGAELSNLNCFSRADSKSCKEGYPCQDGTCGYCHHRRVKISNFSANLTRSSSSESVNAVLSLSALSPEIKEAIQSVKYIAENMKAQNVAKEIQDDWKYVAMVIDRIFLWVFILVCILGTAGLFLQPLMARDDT
UniProt P12390, 25-500 limits assumed: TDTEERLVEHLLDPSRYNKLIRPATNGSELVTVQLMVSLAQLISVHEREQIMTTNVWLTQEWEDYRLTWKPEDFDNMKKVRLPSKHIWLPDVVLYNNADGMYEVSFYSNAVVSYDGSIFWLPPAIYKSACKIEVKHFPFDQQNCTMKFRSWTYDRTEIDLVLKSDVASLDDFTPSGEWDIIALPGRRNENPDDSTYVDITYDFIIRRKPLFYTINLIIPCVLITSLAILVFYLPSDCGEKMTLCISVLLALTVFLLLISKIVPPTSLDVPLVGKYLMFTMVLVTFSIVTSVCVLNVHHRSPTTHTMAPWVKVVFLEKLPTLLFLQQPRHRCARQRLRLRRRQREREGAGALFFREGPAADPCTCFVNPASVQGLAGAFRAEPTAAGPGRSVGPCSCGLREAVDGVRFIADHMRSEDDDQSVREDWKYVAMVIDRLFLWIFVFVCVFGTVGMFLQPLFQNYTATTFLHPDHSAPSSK
UniProt P12392, 21-495 limits assumed: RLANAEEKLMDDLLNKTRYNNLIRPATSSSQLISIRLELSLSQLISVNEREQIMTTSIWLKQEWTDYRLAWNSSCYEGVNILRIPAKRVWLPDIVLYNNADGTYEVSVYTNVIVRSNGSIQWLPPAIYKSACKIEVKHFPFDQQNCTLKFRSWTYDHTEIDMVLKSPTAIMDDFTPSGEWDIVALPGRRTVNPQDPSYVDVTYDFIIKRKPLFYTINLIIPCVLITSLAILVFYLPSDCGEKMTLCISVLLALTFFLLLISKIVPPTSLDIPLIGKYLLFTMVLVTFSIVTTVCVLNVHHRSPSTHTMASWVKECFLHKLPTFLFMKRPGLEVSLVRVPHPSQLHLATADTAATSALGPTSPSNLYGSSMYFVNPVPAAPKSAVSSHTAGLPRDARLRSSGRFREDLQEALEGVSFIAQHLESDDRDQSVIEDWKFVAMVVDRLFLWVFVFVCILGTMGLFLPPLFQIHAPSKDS

Values joined by “and” are separate entries in the source; they are usually repeats but may differ in a detail not shown here. Equal values may be shown once.

Broadly, the IC50 is the concentration at which inhibition is half-maximal. Low readings indicate greater potency, high ones weaker potency. As a reminder, the inhibition is the relative decrease from the control value, in per cent.

Take `CC[C@H](C)[C@@H]1NC(=O)[C@H](CCC(N)=O)NC(=O)[C@@H]2CCCN2C(=O)[C@H](CC(N)=O)NC(=O)[C@H](CO)NC(=O)[C@H](CCSC)NC(=O)[C@H](CC(N)=O)NC(=O)[C@@H]2CSSC[C@H](N)C(=O)N[C@@H](CSSC[C@@H](C(N)=O)NC1=O)C(=O)N[C@@H](Cc1ccc(O)cc1)C(=O)N[C@@H](Cc1c[nH]cn1)C(=O)N1CCC[C@H]1C(=O)N[C@@H]([C@@H](C)O)C(=O)N2`: the IC50 was 12.2 µM in test [1], greater than 10 µM in test [2] and greater than 10 µM in test [3]. In addition, the “activity at α3β2 nAChR” value in test [4] is “no activity”. In addition, in test [5], the “activity at α3β4 nAChR” value is “no activity”. Moreover, in test [6], the “effect on α1β1δε nAChR” value is “little effect”.
In the case of `CC[C@H](C)[C@@H]1NC(=O)[C@H](CCC(N)=O)NC(=O)[C@@H]2CCCN2C(=O)[C@H](CC(N)=O)NC(=O)[C@H](CO)NC(=O)[C@H](CCSC)NC(=O)[C@H](CC(N)=O)NC(=O)[C@@H]2CSSC[C@H](NC(=O)[C@@H]3C[C@@H](O)CN3)C(=O)N[C@@H](CSSC[C@@H](C(N)=O)NC1=O)C(=O)N[C@@H](Cc1ccc(O)cc1)C(=O)N[C@@H](Cc1c[nH]cn1)C(=O)N1CCC[C@H]1C(=O)N[C@@H]([C@@H](C)O)C(=O)N2`, the IC50 in test [1] was 13 µM; in test [2], greater than 10 µM; in test [3], greater than 10 µM. Further, the “activity at α3β2 nAChR” value in test [4] was “no activity”. In test [5], the “activity at α3β4 nAChR” value is “no activity”. In test [6], the “effect on α1β1δε nAChR” value is “little effect”.
In the case of `CC[C@H](C)[C@@H]1NC(=O)[C@H](CCC(N)=O)NC(=O)[C@@H]2CCCN2C(=O)[C@H](CC(N)=O)NC(=O)[C@H](CO)NC(=O)[C@H](CCSC)NC(=O)[C@H](CC(N)=O)NC(=O)[C@@H]2CSSC[C@H](NC(=O)[C@@H]3C[C@@H](O)CN3C(=O)[C@H](CC(=O)O)NC(=O)[C@@H](N)CCCNC(=N)N)C(=O)N[C@@H](CSSC[C@@H](C(N)=O)NC1=O)C(=O)N[C@@H](Cc1ccc(O)cc1)C(=O)N[C@@H](Cc1c[nH]cn1)C(=O)N1CCC[C@H]1C(=O)N[C@@H]([C@@H](C)O)C(=O)N2`, the concentration for half-maximal inhibition (IC50) in test [1] came to 0.0659 µM; in test [2], 7.3 µM; in test [3] it was 6.44 µM. In addition, in test [6] (10 nM peptide), the “activity at α1β1δε nAChR” value is “no activity”.
In the case of `CC[C@H](C)[C@@H]1NC(=O)[C@H](CCC(N)=O)NC(=O)[C@@H]2CCCN2C(=O)[C@H](CC(N)=O)NC(=O)[C@H](C)NC(=O)[C@H](CCSC)NC(=O)[C@H](CC(N)=O)NC(=O)[C@@H]2CSSC[C@H](NC(=O)[C@@H]3C[C@@H](O)CN3C(=O)[C@H](CC(=O)O)NC(=O)[C@@H](N)CCCNC(=N)N)C(=O)N[C@@H](CSSC[C@@H](C(N)=O)NC1=O)C(=O)N[C@@H](Cc1ccc(O)cc1)C(=O)N[C@@H](Cc1c[nH]cn1)C(=O)N1CCC[C@H]1C(=O)N[C@@H]([C@@H](C)O)C(=O)N2`, the half-maximal inhibitory concentration (IC50) in test [1] was 0.0348 µM and 0.0346 µM; in test [2], greater than 10 µM; in test [3], greater than 10 µM. In addition, in test [4] (1 μM peptide, n = 3), the “inhibition at α3β2 nAChR” value is recorded as 9.5 ± 2.0%. In addition, the “inhibition at α3β4 nAChR” value in test [5] (1 μM peptide, n = 3) was 3 ± 0.8%.
As for `CC[C@H](C)[C@@H]1NC(=O)[C@H](CCC(N)=O)NC(=O)[C@@H]2CCCN2C(=O)[C@H](CC(N)=O)NC(=O)[C@H](CO)NC(=O)[C@H](CCSC)NC(=O)[C@H](CC(N)=O)NC(=O)[C@@H]2CSSC[C@H](NC(=O)[C@@H]3C[C@@H](O)CN3C(=O)[C@@H](N)CC(=O)O)C(=O)N[C@@H](CSSC[C@@H](C(N)=O)NC1=O)C(=O)N[C@@H](Cc1ccc(O)cc1)C(=O)N[C@@H](Cc1c[nH]cn1)C(=O)N1CCC[C@H]1C(=O)N[C@@H]([C@@H](C)O)C(=O)N2`, the IC50 in test [1] is 0.716 µM; in test [2], greater than 10 µM; in test [3], greater than 10 µM.

The record behind these values is PMC6832962, “Identification of Crucial Residues in α-Conotoxin EI Inhibiting Muscle Nicotinic Acetylcholine Receptor” (2019).
